{"source": "PubChem BioAssay AID504761, Drosophila RNAi Screening Center, 2011", "assay": "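Insect host genes that dengue virus relies on to spread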 (primary screen)", "system": "D.Mel-2 cells from Drosophila", "knock-down reagent": "long dsRNA against Drosophila genes", "conditions": "infection with dengue virus type 2; dose and infection time not stated", "detection": "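Per well on two replicate plates, imaging gave the percent of cells positive for viral envelope protein, ranked by infection, and a nuclear count of cells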", "reading the numbers": "infection score: higher = more virus-infected cells; cell count: higher = more cells in the well", "call rule": "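Very low infection ranking in both replicate wells (chance probability at most 0.065), then a retest showing infection dropped 1.5-fold or more at p below 0.05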", "calls": "active = confirmed: knock-down lowers infection; inactive = not picked or not confirmed", "note": "In all, the deposit lists about 22,000 reagents; this is a random part of those with a known target gene and a result. Of all reagents, 116 (0.52%) are marked active. 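Calls depend on retest data that are not deposited; infection was ranked per plate without normalising between plates; the unit of the infection score is not given.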 Raw values are not corrected between plates. A number with no mark means an inactive call. Reagents against one gene are numbered here. Names joined by + are all predicted targets of the reagent. Further read-outs or replicates are left out here. The record does not give: the amount of reagent, the time to read-out."}
{"gene":"SP1029 (GeneID 53473)","reagent":1,"infection score, replicate 1":4.53,"cell count, replicate 1":6740}
{"gene":"SP1029 (GeneID 53473)","reagent":2,"infection score, replicate 1":1.05,"cell count, replicate 1":6504}
{"gene":"rtp (GeneID 40627)","reagent":1,"infection score, replicate 1":4.03,"cell count, replicate 1":6755}
{"gene":"CG6048 (GeneID 31528)","reagent":1,"infection score, replicate 1":3.97,"cell count, replicate 1":6076}
{"gene":"CG6048 (GeneID 31528)","reagent":2,"infection score, replicate 1":9.75,"cell count, replicate 1":2440}
{"gene":"CG7386 (GeneID 38719)","reagent":1,"infection score, replicate 1":0.95,"cell count, replicate 1":6441}
{"gene":"CG7386 (GeneID 38719)","reagent":2,"infection score, replicate 1":20.5,"cell count, replicate 1":6319}
{"gene":"CG3491 (GeneID 34870)","reagent":1,"infection score, replicate 1":5.34,"cell count, replicate 1":5976}

Continued, starting with the last 2 of the part before.
{"gene":"CG7386 (GeneID 38719)","reagent":2,"infection score, replicate 1":20.5,"cell count, replicate 1":6319}
{"gene":"CG3491 (GeneID 34870)","reagent":1,"infection score, replicate 1":5.34,"cell count, replicate 1":5976}
{"gene":"FoxK (GeneID 39252)","reagent":1,"infection score, replicate 1":9.02,"cell count, replicate 1":6356}
{"gene":"pins (GeneID 53569)","reagent":1,"infection score, replicate 1":6.55,"cell count, replicate 1":5989}
{"gene":"CG31266 (GeneID 42071)","reagent":1,"infection score, replicate 1":1.5,"cell count, replicate 1":6659}
{"gene":"CG34444 (GeneID 5740745)","reagent":1,"infection score, replicate 1":34.3,"cell count, replicate 1":5773}
{"gene":"Reps (GeneID 34542)","reagent":1,"infection score, replicate 1":5.74,"cell count, replicate 1":5875}
{"gene":"CG12935 + Nop10","reagent":1,"infection score, replicate 1":7.64,"cell count, replicate 1":6751}
